Results of unrelated studies side by side (data: NIAID ChemDB).

Shared fields: tests on isolated targets

a–b is a range or a potency band. Fold resistance: result on the changed form divided by that on wild type. Lines come from different laboratories, so protocols vary. Inhibition is in % at the dose shown (toxicity tests: loss of growth or viability). ICn is the concentration giving n% inhibition. Blank or dashed fields: not listed here.

structure,mutations,strain or isolate,protein,tested at,organism,read by,read-out,value
O=C(N[C@H](C(=O)N1C[C@H](OCc2cccc3ccccc23)C[C@H]1C(=O)NC1(C(=O)O)CC1)C1CCCCC1)C(CC1CCCCC1)CC1CCCCC1,-,-,HCV NS3/NS4A protease,-,Hepatitis C virus,-,IC50,29.5 µM
O=c1c(O)c(-c2ccccc2)oc2cc(O)cc(O)c12,-,J4,Replicase complex,20 µM,Hepatitis C virus,SYBR Green,inhibition,80.8%
CN(C)CCNc1cc(C(=O)Nc2ccc3nc[nH]c3c2)c(F)cc1F,-,-,NS5B polymerase,0.1 µg/mL,Hepatitis C virus,-,inhibition,46%
CN1CCN(c2cc(C(=O)Nc3ccc4cn[nH]c4c3)c(F)cc2F)CC1,-,-,Reverse transcriptase,0.1 µg/mL,Hepatitis B virus,-,inhibition,33%
CCCC(NC(=O)[C@@H]1C[C@@H]2CN1C(=O)[C@H](C1CCCCC1)NC(=O)Cc1cccc(c1)OCCCCO2)C(=O)C(=O)NCC(=O)N[C@H](C(=O)OC(C)(C)C)c1ccccc1,-,-,NS3 serine protease,-,Hepatitis C virus,-,Ki,<0.1 µM
C[C@@]1(O)[C@H](O)[C@@H](COP(=O)(O)OP(=O)(O)OP(=O)(O)O)O[C@@]1(C#N)c1ccc2c(N)ncnn12,M289L,2a JFH-1,Nonstructural protein 5B,-,Hepatitis C virus,radiometric,fold resistance,2.8
C=CCN(C(=O)Cc1cccc(C)c1)c1cc(-c2ccccc2)sc1C(=O)O,-,-,NS3 ATPase,-,Hepatitis C virus,-,IC50,5–20 µM
O=C(Nc1cccc(-c2nc(C(=O)O)c(O)c(=O)[nH]2)c1)Nc1cccc2ccccc12,-,-,HCV polymerase,-,Hepatitis C virus,-,IC50,<100 µM
O=c1c(O[C@@H]2O[C@H](CO)[C@H](O)[C@H](O)[C@H]2O)c(-c2ccc(O)c(O)c2)oc2cc(O)cc(O)c12,-,J4,Replicase complex,20 µM,Hepatitis C virus,SYBR Green,inhibition,28.1%
Cc1ccccc1S(=O)(=O)Nc1cc(-c2ccc([N+](=O)[O-])cc2)sc1C(=O)O,-,-,NS3 ATPase,-,Hepatitis C virus,-,IC50,<5 µM
O=C1/C(=C\c2ccc[nH]2)SC(=S)N1NS(=O)(=O)c1ccccc1,-,-,NS5B polymerase,-,Hepatitis C virus,-,IC50,>30 µM
O=C(Nc1ccsc1-c1nc(C(=O)O)c(O)c(=O)[nH]1)OCCc1ccc(F)cc1O,-,-,HCV polymerase,-,Hepatitis C virus,-,IC50,<25 µM
CC(=O)N[C@@H](CC(=O)O)C(=O)N[C@H](CC(C(=O)O)C(=O)O)C(=O)N[C@@H](Cc1ccccc1)C(=O)N[C@@H](CCC(=O)O)C(=O)N[C@@H](CC1CCCCC1)C(=O)N[C@@H](CS)C(=O)C(=O)O,-,-,NS3/NS4A serine protease,-,Hepatitis C virus,-,Ki,0.00009 µM
C=CC(=O)NCC(=O)N1C[C@H](Oc2nccc3ccc(Br)cc23)C[C@H]1C(=O)N[C@]1(C(=O)NS(=O)(=O)C2CC2)C[C@H]1C=C,-,1b D168A,Nonstructural protein 3/4A,-,Hepatitis C virus,FRET,IC50,0.755 µM
O=C(O)[C@H](Cc1ccccc1)N(Cc1cccc([N+](=O)[O-])c1)C(=O)c1ccc(Cl)cc1Cl,-,-,NS5B polymerase,-,Hepatitis C virus,-,IC50,0.7 µM
CC(=O)N[C@@H](CC(=O)O)C(=O)N[C@H](CC(C(=O)O)C(=O)O)C(=O)N[C@H](C(=O)N[C@@H](CCC(=O)O)C(=O)N[C@@H](Cc1cccc2ccccc12)C(=O)N[C@@H](CS)C(=O)C(=O)O)C(c1ccccc1)c1ccccc1,-,-,NS3/NS4A serine protease,-,Hepatitis C virus,-,Ki,0.0003 µM
O=C(O)[C@H](Cc1ccccc1)N(Cc1cccc(Br)c1)C(=O)c1ccc(Cl)cc1,-,-,RNA-dependent RNA polymerase,-,Hepatitis C virus,-,IC50,5–20 µM
NN1C(=O)/C(=C\c2ccc(-c3cccc(Cl)c3)o2)SC1=S,-,-,NS5B polymerase,-,Hepatitis C virus,-,IC50,≤30 µM
O=C1/C(=C\c2ccc(Cl)c(Cl)c2)SC(=S)N1NS(=O)(=O)c1ccccc1F,-,-,NS3 serine protease,-,Hepatitis C virus,-,IC50,<1 µM
C=C[C@H]1CC1(NC(=O)[C@@H]1C[C@@H](Oc2cc(-c3csc(N)n3)nc3ccccc23)CN1C(=O)[C@@H](NC(=O)OC(C)(C)C)C(C)(C)C)C(=O)O,-,-,HCV NS3/NS4A protease,-,Hepatitis C virus,-,IC50,0.087 µM
O=c1c(-c2ccc(O)cc2)coc2cc(OC3OC(CO)C(O)C(O)C3O)cc(O)c12,-,J4,Replicase complex,20 µM,Hepatitis C virus,SYBR Green,inhibition,13.1%
Nc1ccn([C@@H]2O[C@H](OP(=O)(O)OP(=O)(O)OP(=O)(O)O)C[C@H]2O)c(=O)n1,-,-,NS3 serine protease,-,Hepatitis C virus,-,IC50,0.036 µM
CC(C)[C@H](NC(=O)OC(C)(C)C)C(=O)N1C[C@H](Oc2ccnc3cc(Cl)ccc23)C[C@H]1C(=O)NC1(C(=O)O)CCC1,-,-,HCV NS3/NS4A protease,-,Hepatitis C virus,-,IC50,5.8 µM
Cc1cc(Cl)ccc1S(=O)(=O)Nc1cc(-c2ccccc2)sc1C(=O)O,-,-,NS3 ATPase,-,Hepatitis C virus,-,IC50,<5 µM
O=C(Nc1ccc2cn[nH]c2c1)c1cc(N2CCC(O)CC2)c(F)cc1F,-,-,Reverse transcriptase,-,Hepatitis B virus,-,IC50,>1 µg/mL
O=c1c(O)c(-c2ccc(O)c(O)c2)oc2cc(O)cc(O)c12,-,J4,Replicase complex,20 µM,Hepatitis C virus,SYBR Green,inhibition,83.7%
CCC1CCC1(NC(=O)[C@@H]1C[C@@H](Oc2cc(-c3ccccc3)nc3cc(OC)ccc23)CN1C(=O)[C@@H](NC(=O)OC(C)(C)C)C(C)(C)C)C(=O)O,-,-,HCV NS3/NS4A protease,-,Hepatitis C virus,-,IC50,0.4 µM
CC1CCC(C(=O)N(c2cc(C3=CCN(C(=O)OCc4ccccc4)CC3)sc2C(=O)O)C(C)C)CC1,-,-,NS3 ATPase,-,Hepatitis C virus,-,IC50,<5 µM
COc1cc(O)c2c(=O)c(OC)c(-c3ccc(OC)c(OC)c3)oc2c1,-,J4,Replicase complex,20 µM,Hepatitis C virus,SYBR Green,inhibition,14.5%
O=C1/C(=C\c2cc(F)c(F)cc2F)SC(=S)N1NS(=O)(=O)c1ccccc1,-,-,NS5B polymerase,-,Hepatitis C virus,-,IC50,≤30 µM
O=C1CC(=O)OC(C#Cc2nccs2)(C2CCCC2)C1,-,-,NS5B polymerase,-,Hepatitis C virus,-,IC50,2.1 µM
O=c1cc(-c2ccccc2)oc2cc(O)c(O)cc12,-,J4,Replicase complex,20 µM,Hepatitis C virus,SYBR Green,inhibition,37.4%
O=C(O)c1sc(-c2ccccc2)cc1NS(=O)(=O)c1cc(F)ccc1F,-,-,NS3 ATPase,-,Hepatitis C virus,-,IC50,<5 µM
CC(=O)N[C@@H](CC(=O)O)C(=O)N[C@H](CC(C(=O)O)C(=O)O)C(=O)N[C@H](C(=O)N[C@@H](CC(=O)O)C(=O)N[C@@H](CC1CCCCC1)C(=O)N[C@@H](CS)C(=O)C(=O)O)C(c1ccccc1)c1ccccc1,-,-,NS3/NS4A serine protease,-,Hepatitis C virus,-,Ki,0.00002 µM
O=C1/C(=C\c2cc(Br)ccc2F)SC(=S)N1NS(=O)(=O)c1ccccc1,-,-,NS5B polymerase,-,Hepatitis C virus,-,IC50,≤30 µM
CCc1ccc(-c2cc(N(C(=O)c3ccc(C)cc3O)C(C)C)c(C(=O)O)s2)cc1,-,-,NS3 ATPase,-,Hepatitis C virus,-,IC50,<5 µM
CC1(C)C(C(=O)Nc2ccsc2-c2nc(C(=O)O)c(O)c(=O)[nH]2)C1(C)C,-,-,HCV polymerase,-,Hepatitis C virus,-,IC50,<25 µM
O=C(O)/C=C/c1ccc(NC(=O)C2(NC(=O)c3ccc4c(c3)nc(-c3ccoc3)n4C3CCCCC3)CCC2)cc1,-,-,NS5B polymerase,-,Hepatitis C virus,-,IC50,0.05 µM
C=C[C@H]1CC1(NC(=O)[C@@H]1C[C@@H](Oc2cc(-c3ccccc3)nc3cc(OC)ccc23)CN1C(=O)[C@@H](NC(=O)CC(C)(C)C)C(C)(C)C)C(=O)O,-,-,HCV NS3/NS4A protease,-,Hepatitis C virus,-,IC50,0.12 µM
O=C(O)CC(c1cccs1)N(Cc1ccc(-c2cccs2)cc1)C(=O)Nc1cc(Cl)nc(Cl)c1,-,-,RNA-dependent RNA polymerase,-,Hepatitis C virus,-,IC50,5–20 µM
O=C(Nc1cccc(-c2nc(C(=O)O)c(O)c(=O)[nH]2)c1NS(=O)(=O)c1ccc2ccccc2c1)c1cccs1,-,-,HCV polymerase,-,Hepatitis C virus,-,IC50,<100 µM
CN1CCN(c2cc(C(=O)Nc3ccc4[nH]ncc4c3)c(F)cc2F)CC1,-,-,Reverse transcriptase,1 µg/mL,Hepatitis B virus,-,inhibition,68%
O=C(O)c1nc(-c2cc(OCc3ccccc3)cs2)[nH]c(=O)c1O,-,-,HCV polymerase,-,Hepatitis C virus,-,IC50,<25 µM
Cc1ccc(C(=O)N2CCOCC2)c(Nc2ccc3cn[nH]c3c2)n1,-,-,NS5B polymerase,0.1 µg/mL,Hepatitis C virus,-,inhibition,54%
Cc1ccc(C(C)NC(=O)Nc2cccc(-c3nc(C(=O)O)c(O)c(=O)[nH]3)c2)c(C)c1,-,-,HCV polymerase,-,Hepatitis C virus,-,IC50,<100 µM
C=C[C@H]1CC1(NC(=O)[C@@H]1C[C@@H](Oc2cc(N3CCN(C)CC3)nc3ccccc23)CN1C(=O)[C@@H](NC(=O)OC(C)(C)C)C(C)(C)C)C(=O)O,-,-,HCV NS3/NS4A protease,-,Hepatitis C virus,-,IC50,0.72 µM
C=C[C@@H]1C[C@]1(NC(=O)[C@@H]1C[C@@H](Oc2cc(-c3ccccc3)nc3cc(OC)ccc23)CN1C(=O)[C@@H](NC(=O)OC(C)(C)C)C(C)(C)C)C(=O)O,-,-,NS3 serine protease,-,Hepatitis C virus,-,Ki,<0.5 µM
C=CC1CCC1(NC(=O)[C@@H]1C[C@@H](Oc2cc(-c3ccccc3)nc3cc(OC)ccc23)CN1C(=O)[C@@H](NC(=O)OC(C)(C)C)C(C)(C)C)C(=O)O,-,-,HCV NS3/NS4A protease,-,Hepatitis C virus,-,IC50,0.22 µM
CC1=NCCN1c1cc(C(=O)Nc2ccc3[nH]ncc3c2)c(F)cc1F,-,-,Reverse transcriptase,1 µg/mL,Hepatitis B virus,-,inhibition,79%
C[C@@H](c1ccccc1)N(C(=O)c1ccc(Cl)cc1Cl)c1cc(-c2ccccc2)sc1C(=O)O,-,-,NS3 ATPase,-,Hepatitis C virus,-,IC50,<5 µM
Cn1ccnc1/C=C1/SC(=S)N(NS(=O)(=O)c2ccccc2)C1=O,-,-,NS5B polymerase,-,Hepatitis C virus,-,IC50,≤30 µM
O=C(O)[C@H](Cc1ccccc1)N(Cc1ccc(-c2nccs2)cc1)C(=O)c1ccc(Cl)cc1Cl,-,-,RNA-dependent RNA polymerase,-,Hepatitis C virus,-,IC50,<5 µM
O=C1/C(=C\c2ccc(Cl)c(Cl)c2)SC(=S)N1NS(=O)(=O)c1cccc2ccccc12,-,-,NS5B polymerase,-,Hepatitis C virus,-,IC50,≤30 µM
O=C(O)c1nc(-c2cccc(Cn3c(=O)oc4ccccc43)c2)[nH]c(=O)c1O,-,-,HCV polymerase,-,Hepatitis C virus,-,IC50,<100 µM
O=c1c(O)c(-c2ccc(O)c(O)c2)oc2c(O)c(O)cc(O)c12,-,J4,Replicase complex,20 µM,Hepatitis C virus,SYBR Green,inhibition,74.6%
COc1cc(C)c(S(=O)(=O)N(Cc2ccccc2Br)[C@@H](Cc2ccccc2)C(=O)O)c(C)c1C,-,-,RNA-dependent RNA polymerase,-,Hepatitis C virus,-,IC50,5–20 µM
O=C1/C(=C/c2ccc(Cl)cc2)SC(=S)N1Cc1ccccc1,-,-,NS5B polymerase,-,Hepatitis C virus,-,IC50,>30 µM
O=c1c(O)c(-c2ccccc2)oc2cc(O)ccc12,-,J4,Replicase complex,20 µM,Hepatitis C virus,SYBR Green,inhibition,71.3%
C=C[C@H]1CC1(NC(=O)[C@@H]1C[C@@H](Oc2nc(N3CCOCC3)nc3cc(OC)c(OC)cc23)CN1C(=O)[C@@H](Nc1ccc(C(=O)OC(C)(C)C)cc1)C(C)(C)C)C(=O)O,-,-,HCV NS3/NS4A protease,-,Hepatitis C virus,-,IC50,0.05 µM
O=C(Nc1ccc2cn[nH]c2c1)c1cc(N2CCNCC2)c(F)cc1F,-,-,Reverse transcriptase,0.1 µg/mL,Hepatitis B virus,-,inhibition,40%
Cc1cc(S(=O)(=O)Nc2cc(C(C)(C)C)sc2C(=O)O)c(C)cc1Cl,-,-,NS3 ATPase,-,Hepatitis C virus,-,IC50,5–20 µM
O=C(Nc1ccc2cn[nH]c2c1)c1cc(N2CCN(CCO)CC2)c(F)cc1F,-,-,Reverse transcriptase,-,Hepatitis B virus,-,IC50,0.1 µg/mL
COc1ccc2c(O[C@@H]3C[C@H]4C(=O)N[C@]5(C(=O)O)CC5/C=C\CCCCC[C@H](NC(=O)OC(C)(C)C)C(=O)N4C3)cc(-c3csc(NC(C)C)n3)nc2c1,-,-,NS3 serine protease,-,Hepatitis C virus,-,Ki,<0.05 µM
COc1cc(C)c(S(=O)(=O)N2CC(C)=CCC2C(=O)N(c2cc(-c3ccccc3)sc2C(=O)O)C(C)C)c(C)c1C,-,-,NS3 ATPase,-,Hepatitis C virus,-,IC50,5–20 µM
CC(=O)N[C@@H](CC(=O)O)C(=O)N[C@H](CC(C(=O)O)C(=O)O)C(=O)N[C@H](C(=O)N[C@@H](CCC(=O)O)C(=O)N[C@H](C(=O)N[C@@H](CS)C(=O)C(=O)O)C(C)C)C(c1ccccc1)c1ccccc1,-,-,NS3/NS4A serine protease,-,Hepatitis C virus,-,Ki,0.0002 µM
O=C(O)C(=O)CC(=O)c1cccc(NS(=O)(=O)c2cc(Cl)c(Cl)cc2Cl)c1,-,-,NS3 serine protease,-,Hepatitis C virus,-,IC50,0.049 µM
O=C(O)c1nc(-c2sccc2NC(=O)C2CCc3ccccc32)[nH]c(=O)c1O,-,-,HCV polymerase,-,Hepatitis C virus,-,IC50,<25 µM
C=C[C@H]1CC1(NC(=O)[C@@H]1C[C@@H](Oc2cc(-c3ccccc3)nc3ccccc23)CN1C(=O)[C@H](C(C)C)N(C)c1ccccc1)C(=O)O,-,-,HCV NS3/NS4A protease,-,Hepatitis C virus,-,IC50,0.31 µM